Values of other authors as cited in patent publication US20070218486A1, “Immunoassays, Haptens, Immunogens and Antibodies for Anti-HIV Therapeutics” (Ark Diagnostics, Inc., priority 2006, published 2007).
Where two headings read alike, the source gives them in different places.

How the values were obtained:
[1] = cited from earlier work
[2] = rat; cited from earlier work
[3] = 2 to 4 hours after the dose, cited from earlier work

Substance: Maraviroc
- major component present in the systemic circulation and excreta ([1]; animal species and humans): parent compound being the major component
- elimination of radioactive dose ([1]; in vivo): primarily via the feces
- secretion of parent compound [2]: secreted via bile and directly into the gastrointestinal tract

Substance: 2′-deoxy-3′-thiacytidine [Lamivudine]
- concentration in cerebrospinal fluid (CSF), % of serum concentrations ([3]; adults): 4 to 8%
- concentration in cerebrospinal fluid (CSF), % of serum concentrations ([3]; children): 9 to 17%
